Results of unrelated studies side by side (data: NIAID ChemDB).

Common to all: whole-cell or culture tests; organism: Hepatitis C virus; read by: luciferase; measure: EC50

Neighbouring rows are from separate reports. Blank or dashed fields: not listed here. ECn is the concentration giving n% inhibition of infection, replication or growth.

compound,cell line,strain,changes,conditions,result
COc1ccc2c(O[C@@H]3C[C@H]4C(=O)N[C@]5(C(=O)O)C[C@H]5C=CCCCN(NC(=O)OC(C)(C)C)C(=O)[C@@H]4C3)cc(-c3ccccc3)nc2c1,Huh7-Rep,1b,,,>0.01 µM
CCCCn1c(=O)c2ccccc2c2cc(C(O)(C(F)(F)F)C(F)(F)F)c3c(c21)OCO3,LucNeo2 cells,1b,,,0.23 µM
O=C(N[C@@H](C(=O)N1CCC[C@H]1c1ncc(-c2ccc(-c3ccc(-c4cnc([C@@H]5CCCN5C(=O)[C@H](NC(=O)C5CC5)c5ccccc5)s4)cc3)cc2)s1)c1ccccc1)C1CC1,Huh7.5,genotype 2a JFH1,,,0.0002288 µM
Nc1ncnc2c1c(Cl)nn2[C@@H]1C=C(CO)[C@@H](O)[C@H]1O,Huh7,,,,87.6 µM
CCCCCCCC(=O)Oc1cccc(O)c1C(=O)NC(=O)NC1c2ccccc2-c2ccccc21,Huh7.5.1,JFH1-2a,S282T,,0.29 µM
CC(C)CC[C@@]1(C)C(=O)C(C2=NS(=O)(=O)c3cc(NS(C)(=O)=O)ccc3N2)=C(O)c2ccccc21,Huh7,6a,,,1.388 µM
COc1ccc(-c2nc(NC(=O)[C@@H](C)c3ccc(Cl)cc3)[nH]c2C)cc1S(=O)(=O)CCO,Huh7,1a,,,0.076 µM
COc1ccccc1N1CCN(C(=O)CNc2ccc(S(=O)(=O)/N=C3\NC(=O)/C(=C/c4ccccc4Cl)S3)cc2)CC1,Huh 5-2,1b,,,22.68 µM
O=C(c1ccccc1)N1CCC2(CCCN(c3ncc(Br)c(-c4ccc(Cl)cc4)n3)C2)CC1,Huh7,H77,,genotype 1a,2.222 µM
COc1ccc(-c2nc(NC(=O)C(C)c3ccccc3)[nH]c2C)cc1S(C)(=O)=O,Huh7,JFH-1,,,0.805 µM
COc1ccc2c(O[C@@H]3C[C@H]4C(=O)N[C@]5(C(=O)NS(=O)(=O)C6CC6)CC5(F)/C=C\CCCCN(C)C(=O)[C@@H]4C3)cc(-c3nc(C(C)C)cs3)nc2c1C,Huh7,,,genotype 1b,>25 µM
C=Cc1cn([C@@H]2C=C(CO)[C@@H](O)[C@H]2O)c2ncnc(C)c12,LucNeo2 cells,,,,>100 µM
O=C(/C=C/c1cc(O)c(O)c(O)c1)OCCc1ccccc1,Huh7,2a,,,48.5 µM
Nc1ncnc2c1c(Br)nn2[C@@H]1C=C(CO)[C@@H](O)[C@H]1O,Huh7,,,,32.2 µM
CC1=CC[C@H](C(=O)N(c2cc(C#CC(C)(C)C)sc2C(=O)O)C2CCC(O)(CO[C@H]3CCOC3)CC2)CC1,Huh7,H77 (GT1a),,,0.009 µM
N#Cc1cccc(COc2c(-c3ccccc3)cc3occc(=O)c3c2O)c1,Huh 5-2,genotype 1,,,20 µM
CCCCCCCCCCOC(=O)/C=C/c1ccc(O)c(O)c1,Huh7,2a,,,5.9 µM
O=C1N/C(=N\S(=O)(=O)c2ccc(Cl)cc2)S/C1=C\c1cccnc1,Huh 5-2,1b,,,64.11 µM
CNC(=O)c1c(-c2ccc(F)cc2)oc2cc(N(CCO)S(C)(=O)=O)c(C3CC3)cc12,Huh7.5,HCVcc virus (JC1p7Fluc2a),,,0.095 µM
O=c1cc(OCc2cccc(Br)c2)oc2cc(-c3ccccc3)c(OCc3cccc(Br)c3)c(O)c12,Huh 5-2,,,,52 µM
[N-]=[N+]=NC[C@@]1(O)[C@@H](CO)O[C@@H](n2cnc3c(N)ncnc32)[C@@H]1O,Huh 5-2,genotype 1,,,11.8 µM
CCCCCCCCCCCC(=O)OC[C@@]1(N=[N+]=[N-])O[C@@H](n2ccc(N)nc2=O)[C@@H](O)[C@@H]1O,Huh7,,,,0.619 µM
COc1ccc2c(O[C@@H]3C[C@H]4C(=O)N[C@]5(C(=O)O)C[C@H]5/C=C\CCCCN(NC(=O)OC(C)(C)C)C(=O)[C@@H]4C3)cc(-c3ccccc3)nc2c1,Huh7-Rep,1b,,,>0.01 µM
COc1ccc(-c2nc(NC(=O)[C@@H](C)c3ccc(Cl)cc3)[nH]c2C)cc1S(C)(=O)=O,Huh7,JFH-1,,,0.194 µM
O=C(N[C@@H](C(=O)N1CCC[C@H]1C(=O)Nc1nc(-c2ccccc2)cs1)c1ccccc1)C1CC1,JFH1,genotype 2a infectious HCV,,,0.1756 µM
O=c1cc(OCc2cccc(I)c2)oc2cc(-c3ccccc3)c(OCc3cccc(I)c3)c(O)c12,Huh 5-2,,,,50 µM
Cc1ccc(S(=O)(=O)/N=C2\NC(=O)/C(=C/c3ccc(-c4ccccc4)cc3)S2)cc1,Huh 5-2,1b,,,58.75 µM
CC(C)[C@H](N)CC(=O)OC[C@@]1(N=[N+]=[N-])O[C@@H](n2ccc(=O)[nH]c2=O)[C@@H](C)[C@@H]1OC(=O)C[C@@H](N)C(C)C,Huh7,,,,1.9 µM
COC(=O)N[C@H](C(=O)N1CCC[C@H]1c1ncc(-c2ccc(-c3ccc(-c4cnc([C@@H]5CCCN5C(=O)[C@@H](NC(=O)OC)C(C)C)[nH]4)cc3)cc2)[nH]1)C(C)C,Lunet,1a,M28V,,0.0000208 µM
COc1nc(N)nc2c1ncn2[C@@H]1O[C@H](COP(=O)(N[C@@H](C)C(=O)OCC(C)(C)C)Oc2cccc3ccccc23)[C@@H](O)[C@@]1(C)O,Huh7,1b,,24 h,0.035 µM
COc1ccccc1N1CCN(C(=O)CNc2ccc(S(=O)(=O)/N=C3\NC(=O)/C(=C/c4ccc(-c5ccccc5)cc4)S3)cc2)CC1,Huh 5-2,1b,,,0.79 µM
Nc1ccn([C@@H]2O[C@H](CO)[C@@H](O)C23CC3)c(=O)n1,Huh7,1b,,,7.3 µM
Cc1cc(-c2nnc(N[C@@H]3CCC[C@H](O)C3)o2)nc2c(C(C)(C)C)cc(OCC(F)(F)F)cc12,,2a - JFH,,,0.096 µM
CC(C)C(=O)OC[C@@]1(N=[N+]=[N-])O[C@@H](n2ccc(=O)[nH]c2=O)[C@@H](C)[C@@H]1O,Huh7,,,,3.6 µM
C[C@@H]1[C@H](n2ccc(N)nc2=O)O[C@@](COP(=O)(C[C@@H](C)C(=O)OCc2ccccc2)Oc2cccc3ccccc23)(N=[N+]=[N-])[C@H]1O,Huh7-Rep,genotype 1,,,3 µM
Nc1ncnc2c1ncn2[C@@H]1C[C@H](CO)[C@@H](O)C12CC2,Huh7,,,,44.1 µM
[N-]=[N+]=NC[C@@]1(O)[C@@H](CO)O[C@@H](n2cnc3cncnc32)[C@@H]1O,Huh 5-2,genotype 1,,,>100 µM
Nc1ncnc2c1ncn2[C@@H]1O[C@H](CO)[C@@H](O)[C@H]1CO,Huh7,1b,,,>88 µM
Cc1cc(-c2nnc(N[C@@H]3CCC[C@H](O)C3)o2)nc2c(C(C)(C)C)cc(NCC(F)(F)F)cc12,Huh7,WT 1b,,,0.0001 µM
CC(C)[C@H](N)CC(=O)O[C@H]1[C@H](C)[C@H](n2ccc(=O)[nH]c2=O)O[C@@]1(CO)N=[N+]=[N-],Huh7,,,,0.72 µM
CCOc1cc(N2CCOCC2)ccc1Nc1ncnc2ccc(-c3nccs3)cc12,Huh,1b,,,<1 µM
COc1c(O)cc2oc3cc(O)c(CC=C(C)C)c(O)c3c(=O)c2c1CC=C(C)C,Huh7.5,J6/JFH-1 (gt 2a),,,6.3 µM
CCCC(=O)O[C@H]1[C@H](C)[C@H](n2ccc(=O)[nH]c2=O)O[C@@]1(CO)N=[N+]=[N-],Huh7,,,,6.6 µM
O=c1cc(OCc2cccc(C(F)(F)F)c2)oc2cc(-c3ccccc3)c(OCc3cccc(C(F)(F)F)c3)c(O)c12,Huh 5-2,,,,>100 µM
O=C(C1CCCC1)N1CCC2(CCCN(c3ncc(-c4ccccc4)c(-c4ccc(Cl)cc4)n3)C2)CC1,Huh7,H77,,genotype 1a,0.477 µM
O=c1cc(OCc2ccc(Cl)cc2)oc2cc(-c3ccccc3)c(OCc3ccc(Cl)cc3)c(O)c12,Huh 5-2,,,,9 µM
CCCCCCCCCN1CCN(Cc2c(O)cc3c(c2O)-c2cc(ccc2O)[C@H]2NC(=O)[C@@H]4NC(=O)[C@H]5NC(=O)[C@@H](Cc6ccc(c(Cl)c6)Oc6cc4cc(c6O)Oc4ccc(cc4Cl)[C@@H](O)[C@H](NC2=O)C(=O)N[C@@H]3C(=O)O)NC(=O)[C@H](N)c2ccc(O)c(c2)Oc2cc(O)cc5c2)CC1,,Huh 9-13,,,17 µM
O=c1ccoc2cc(-c3ccccc3)c(OCc3cccc([N+](=O)[O-])c3)c(O)c12,Huh 5-2,genotype 1,,,14 µM
O=C(c1nn2c(C(F)(F)F)cc(C3CC3)cc2c1Cl)N1CCN([C@H]2C[C@H]3C[C@H]3[C@H]2O)C(=O)C1,Huh7,1b,H94N,,>1 µg/mL
COc1c(-c2ccc3cc(NS(C)(=O)=O)ccc3c2)cc(-n2ccc(=O)[nH]c2=O)cc1C(C)(C)C,Huh7,genotype 1b Con1,Y448C,,0.244 µM
Nc1ncnc2c1ncn2[C@@H]1C[C@H](CO)[C@@H](CO)C12CC2,Huh7,,,,>50 µM
NS(=O)(=O)c1ccc(CNc2nc(NCC(F)(F)F)c3nc(-c4ccc(NC(=O)C5CC5)nc4)ccc3n2)cc1,,1b,,,0.003 µM

The last 5 rows once more:

compound	cell line	strain	changes	conditions	result
O=c1ccoc2cc(-c3ccccc3)c(OCc3cccc([N+](=O)[O-])c3)c(O)c12	Huh 5-2	genotype 1			14 µM
O=C(c1nn2c(C(F)(F)F)cc(C3CC3)cc2c1Cl)N1CCN([C@H]2C[C@H]3C[C@H]3[C@H]2O)C(=O)C1	Huh7	1b	H94N		>1 µg/mL
COc1c(-c2ccc3cc(NS(C)(=O)=O)ccc3c2)cc(-n2ccc(=O)[nH]c2=O)cc1C(C)(C)C	Huh7	genotype 1b Con1	Y448C		0.244 µM
Nc1ncnc2c1ncn2[C@@H]1C[C@H](CO)[C@@H](CO)C12CC2	Huh7				>50 µM
NS(=O)(=O)c1ccc(CNc2nc(NCC(F)(F)F)c3nc(-c4ccc(NC(=O)C5CC5)nc4)ccc3n2)cc1		1b			0.003 µM